Data published in patent US20220047701A1, “COMBINATION OF HER2/NEU ANTIBODY WITH HEME FOR TREATING CANCER” (INSERM (Institut National de la Santé et de la Recherche …, priority 2018, published 2022).

System: Lysates of Bacillus anthracis or human umbilical vein endothelial cells (HUVEC)
Assay type: binding
Conditions: Trastuzumab 0.2 μM, heme 0.15-20 μM

For “heme-exposed Trastuzumab: Trastuzumab pre-treated with heme; elutes as monomeric and oligomeric species”, the “binding to bacterial and autoantigens” value was “concentration-dependent increase of binding”.
